# The exact form of at least one protein or probe is not confirmed. Where cells or extracts were used, other partners may take part.
# Amino acid sequences for entries named in this document (tags omitted). A change or cut given only in a name is not applied to a line headed by its entry.
# UniProt Q16665: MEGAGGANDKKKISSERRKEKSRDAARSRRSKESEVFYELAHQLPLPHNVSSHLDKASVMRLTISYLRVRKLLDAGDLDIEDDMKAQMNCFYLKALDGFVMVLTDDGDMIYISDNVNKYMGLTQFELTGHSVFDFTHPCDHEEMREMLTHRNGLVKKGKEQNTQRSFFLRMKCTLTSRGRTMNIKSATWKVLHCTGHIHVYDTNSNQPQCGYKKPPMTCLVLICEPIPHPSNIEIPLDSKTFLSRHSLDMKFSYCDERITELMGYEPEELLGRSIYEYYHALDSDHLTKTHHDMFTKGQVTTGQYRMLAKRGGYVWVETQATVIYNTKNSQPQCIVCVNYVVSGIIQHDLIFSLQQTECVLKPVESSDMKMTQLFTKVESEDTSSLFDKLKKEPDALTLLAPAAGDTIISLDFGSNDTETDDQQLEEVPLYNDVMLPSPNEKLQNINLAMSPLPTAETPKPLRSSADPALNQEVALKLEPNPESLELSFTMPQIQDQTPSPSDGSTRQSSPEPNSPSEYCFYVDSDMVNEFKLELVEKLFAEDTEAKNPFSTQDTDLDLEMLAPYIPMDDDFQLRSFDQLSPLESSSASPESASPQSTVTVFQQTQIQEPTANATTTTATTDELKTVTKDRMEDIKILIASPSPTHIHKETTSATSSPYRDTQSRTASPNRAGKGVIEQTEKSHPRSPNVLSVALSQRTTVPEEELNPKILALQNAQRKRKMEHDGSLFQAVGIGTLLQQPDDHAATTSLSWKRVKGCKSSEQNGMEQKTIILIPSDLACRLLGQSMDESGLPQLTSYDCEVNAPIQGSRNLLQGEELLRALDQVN
# Legend:
# HIF-1α (c-myc-tagged) = HIF-1α (c-myc-tagged) (UniProt Q16665); test: EMSA supershift; details: anti-c-myc gives C2, partial shift of C1, normal mouse serum does not; 10 μg nuclear extract, ~100,000 cpm probe, 4°C, 30 min; antibody pre-incubated 1 h at 4°C; salt and pH not given; protein in an extract; residues 1-826; protein details: c-myc; label: 32P
# Vpr (HIV-1) = test: EMSA supershift; details: anti-Vpr gives C2 and abolishes C1, non-immune serum does not, direct contact not shown; 10 μg nuclear extract, ~100,000 cpm probe, 4°C, 30 min; antibody pre-incubated 1 h at 4°C; salt and pH not given; protein in an extract; label: 32P
sequence,measurement,setting,value
TCCCAGGGAGGCGTGGCCTGG / CCAGGCCACGCCTCCCT [HIV-1 LTR GC-rich probe (-82/-61)],binding result,HIF-1α (c-myc-tagged),binds
same,binding result,Vpr (HIV-1),binds

# — publication PMC3210103
